{"sequences": {"note": "Amino acid sequences for entries named in this document (tags omitted). Residues count along the entry.", "UniProt P54300, 24-365 limits assumed": "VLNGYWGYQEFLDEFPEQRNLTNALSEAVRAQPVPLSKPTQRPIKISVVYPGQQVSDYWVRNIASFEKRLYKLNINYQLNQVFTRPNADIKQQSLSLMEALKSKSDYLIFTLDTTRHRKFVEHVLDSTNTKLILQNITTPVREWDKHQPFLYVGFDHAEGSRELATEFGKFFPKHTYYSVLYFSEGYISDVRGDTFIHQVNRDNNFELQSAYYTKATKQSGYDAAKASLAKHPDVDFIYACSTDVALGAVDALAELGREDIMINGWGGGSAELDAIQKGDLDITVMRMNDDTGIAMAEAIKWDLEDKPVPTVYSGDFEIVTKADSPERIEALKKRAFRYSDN"}, "source": "ChEMBL document CHEMBL1141519", "about": "“Pyrogallol and its analogs can antagonize bacterial quorum sensing in Vibrio harveyi” (Bioorg Med Chem Lett, 2008)", "target": "Autoinducer 2-binding periplasmic protein LuxP (Vibrio harveyi, UniProt P54300)", "experiment": "Antagonist activity at LuxP receptor in Vibrio harveyi MM32 assessed as inhibition of autoinducer-2-mediated quorum sensing after 3 to 4 hrs"}
{"smiles": "O=[N+]([O-])c1cc([N+](=O)[O-])c(O)c(O)c1O", "values": [{"measurement": "IC50", "value": 3, "unit": "µM"}]}
